A mixed list of measured activities; the numbers were collected in NIAID ChemDB.

All rows: tests in culture; agent: Mycobacterium fortuitum

Conditions beyond the fields shown may differ between rows. MIC50, MIC90 and the like: level of inhibition, or share of isolates inhibited. An empty or dashed field is not shown.

structure	strain	read by	measure	value
N/C(=N/N=C/c1ccc(Br)cc1)c1ccccn1			MIC	256 µg/mL
CC(C)N=c1cc2n(-c3ccc(Cl)cc3)c3ccccc3nc-2cc1Nc1ccc(Cl)cc1	6841 ATCC		MIC	13.3 µg/mL
NC(=O)c1ncc(C(N)=S)nc1N1CCOCC1	1021		MIC	>100 µg/mL
CC[C@H]1OC(=O)[C@H](C)[C@@H](O[C@H]2C[C@@](C)(OC)[C@@H](O)[C@H](C)O2)[C@H](C)[C@@H](O[C@@H]2O[C@H](C)C[C@H](N(C)C)[C@H]2O)[C@](C)(O)C[C@@H](C)C(=O)[C@H](C)[C@@H](O)[C@]1(C)O	25 isolates		MBC90	>8 µg/mL
CO[C@@]1(NC(=O)Cc2cccs2)C(=O)N2C(C(=O)O)=C(COC(N)=O)CS[C@@H]21	1260		MIC	12.5 µg/mL
CC(C)CNc1nc(C(N)=S)cnc1C(N)=O	1021		MIC	>100 µg/mL
Cc1noc2ncn(/N=C/c3ccc(Cl)cc3Cl)c(=O)c12	PCM 672	resazurin	MIC90	62.5 µg/mL
CCCNc1nc(C(N)=S)cnc1C(N)=O	1021		MIC	>100 µg/mL
CC1CN(c2cc3c(cc2F)c(=O)c(C(=O)O)cn3-c2ccc(F)cc2F)CCN1	25 isolates		MBC90	8 µg/mL
N/C(=N/N=C/c1ccc(Cl)cc1)c1ccccn1			MIC	256 µg/mL
CC[C@H]1OC(=O)[C@H](C)[C@@H](O[C@H]2C[C@@](C)(OC)[C@@H](O)[C@H](C)O2)[C@H](C)[C@@H](O[C@@H]2O[C@H](C)C[C@H](N(C)C)[C@H]2O)[C@](C)(OC)C[C@@H](C)C(=O)[C@H](C)[C@@H](O)[C@]1(C)O	25 isolates		MIC50	>8 µg/mL
N/C(=N\N=C\c1ccc(Cl)c([N+](=O)[O-])c1)c1ccccn1			MIC	256 µg/mL
CN[C@@H]1[C@H](O[C@H]2[C@H](O[C@H]3[C@H](O)[C@@H](O)[C@H](N=C(N)N)[C@@H](O)[C@@H]3N=C(N)N)O[C@@H](C)[C@]2(O)C=O)O[C@@H](CO)[C@H](O)[C@H]1O	ATCC 6841		MIC	>64 µg/mL
CCn1cc(C(=O)O)c(=O)c2cc(F)c(C3CSCN3C)cc21			MIC	>100 µg/mL
NC[C@H]1O[C@H](O[C@H]2[C@H](O)[C@@H](O[C@H]3O[C@H](CO)[C@@H](O)[C@H](N)[C@H]3O)[C@H](N)C[C@@H]2N)[C@H](N)C[C@@H]1O	ATCC 6841		MBC	>64 µg/mL
COc1ccccc1/C=N/N=C(/N)c1ccccn1			MIC	256 µg/mL
Cc1noc(N)c1C(=O)NN	PCM 672	resazurin	MIC90	>100 µg/mL
C[C@H]1COc2c(N3CCN(C)CC3)c(F)cc3c(=O)c(C(=O)O)cn1c23	ATCC 6841		MBC	4 µg/mL
CC1COc2c(N3CCN(C)CC3)c(F)cc3c(=O)c(C(=O)O)cn1c23	NCTC 10394		MIC	2 µg/mL
CN(C)C(=O)CC(CSc1ccccc1)Nc1c(C(=O)N/N=C/c2ccc(F)cc2)cnc2cc(F)ccc12	ATCC 19542	resazurin	MIC	5 µg/mL
CO[C@@]1(NC(=O)Cc2ccccc2)C(=O)N2C(C(=O)O)=C(COC(C)=O)CSC21	914-8		MIC	6.25 µg/mL
CSCCC/C=N/NC(=O)c1cnc2cccc(C(F)(F)F)c2c1NC(CSc1ccccc1)CC(=O)N(C)C	ATCC 19542	resazurin	MIC	>100 µg/mL
CO[C@@]1(NC(=O)C(C(=O)O)c2ccc(O)cc2)C(=O)N2C(C(=O)O)=C(CSc3nnnn3C)CO[C@@H]21	1260		MIC	50 µg/mL
CCn1cc(C(=O)O)c(=O)c2cc(F)c(-c3csc(-c4ccccc4)n3)cc21			MIC	3.12 µg/mL
CSc1ccccc1/C=N/NC(=O)c1cnc2cccc(C(F)(F)F)c2c1NC(CSc1ccccc1)CC(=O)N(C)C	ATCC 19542	resazurin	MIC	>100 µg/mL
Cc1noc2ncn(/N=C/c3ccc(C(F)(F)F)cc3)c(=O)c12	PCM 672	resazurin	MIC90	>100 µg/mL
CN1CCN(c2c(F)cc3c(=O)c(C(=O)O)cn(CCF)c3c2F)CC1	18367		MIC90	3.13 µg/mL
C[C@H]1C[C@H](N)CN1c1cc2c(cc1F)c(=O)c(C(=O)O)cn2-c1ccc(F)cc1F	25 isolates		MIC50	8 µg/mL
NCC[C@H](O)C(=O)N[C@@H]1C[C@H](N)[C@@H](O[C@H]2O[C@H](CN)[C@@H](O)[C@H](O)[C@H]2O)[C@H](O)[C@H]1O[C@H]1O[C@H](CO)[C@@H](O)[C@H](N)[C@H]1O		broth dilution	MIC50	≤2 µg/mL
Cc1noc2nc(C)n(/N=C/c3ccccc3)c(=O)c12	PCM 672	resazurin	MIC90	>100 µg/mL
COc1c(N2CCNC(C)C2)c(F)cc2c(=O)c(C(=O)O)cn(C3CC3)c12	20 strains		MIC50	0.2 µg/mL
Cc1noc2ncn(/N=C/c3ccncc3)c(=O)c12	PCM 672	resazurin	MIC90	>100 µg/mL
NC(=O)c1ncc(C(N)=S)nc1Nc1ccc(O)cc1	1021		MIC	100 µg/mL
CCn1cc(C(=O)O)c(=O)c2ccc(-c3csc(SC)n3)cc21			MIC	6.25 µg/mL
COc1ccc(/C=N/NC(=O)c2cnc3cc(F)ccc3c2NC(CSc2ccccc2)CC(=O)N(C)C)cc1	ATCC 19542	resazurin	MIC	>100 µg/mL
CCc1cc(C(N)=S)ccn1	22 strains		MIC50	5 µg/mL
CCCCNc1nc(C(N)=S)cnc1C(N)=O	1021		MIC	>100 µg/mL
Cc1ccc(C)c(/C=N/N=C(\N)c2ccccn2)c1			MIC	256 µg/mL
COc1ncccc1Nc1cc2nc3ccccc3n(-c3ccc(OC(F)(F)F)cc3)c-2cc1=NC1CCC(OC)CC1		fluorescence	MIC90	0.688 µg/mL
NC[C@@H]1O[C@H](O[C@H]2[C@@H](O)[C@H](O[C@@H]3[C@@H](O)[C@H](N)C[C@H](N)[C@H]3O[C@H]3O[C@H](CN)[C@@H](O)[C@H](O)[C@H]3N)O[C@@H]2CO)[C@H](N)[C@@H](O)[C@@H]1O	31 isolates		MIC50	8 µg/mL
CO[C@@]1(NC(=O)CCCC(N)C(=O)O)C(=O)N2C(C(=O)O)=C(COC(N)=O)CSC21	1261		MIC	>100 µg/mL
CCn1cc(C(=O)O)c(=O)c2ccc(-c3csc(NC(C)=O)n3)cc21			MIC	1.6 µg/mL
CO[C@@]1(NC(=O)Cc2ccccc2)C(=O)N2C(C(=O)[O-])=C(CSc3nnc(C)s3)CSC21	1030-8		MIC	100 µg/mL
NC(=O)c1ncc(C(N)=S)nc1N1CCCC1	1021		MIC	>100 µg/mL

The first 4 rows once more:

structure | strain | read by | measure | value
N/C(=N/N=C/c1ccc(Br)cc1)c1ccccn1 |  |  | MIC | 256 µg/mL
CC(C)N=c1cc2n(-c3ccc(Cl)cc3)c3ccccc3nc-2cc1Nc1ccc(Cl)cc1 | 6841 ATCC |  | MIC | 13.3 µg/mL
NC(=O)c1ncc(C(N)=S)nc1N1CCOCC1 | 1021 |  | MIC | >100 µg/mL
CC[C@H]1OC(=O)[C@H](C)[C@@H](O[C@H]2C[C@@](C)(OC)[C@@H](O)[C@H](C)O2)[C@H](C)[C@@H](O[C@@H]2O[C@H](C)C[C@H](N(C)C)[C@H]2O)[C@](C)(O)C[C@@H](C)C(=O)[C@H](C)[C@@H](O)[C@]1(C)O | 25 isolates |  | MBC90 | >8 µg/mL